Compound potency records, mixed from different reports. Data source: NIAID ChemDB in PubChem.

Shared fields: tests in culture; species: HIV-1; read by: cytopathic effect / XTT; endpoint: fold resistance

Neighbouring rows are from separate reports. Fold resistance has wild type as its base.

| structure | cell line | changes | strain | result |
|---|---|---|---|---|
| c1ccc2c(c1)sc1nccn12 | CEM + CEM-SS | RT-Y181C | IIIB(N119(III)) | >200 |
| Cc1cn([C@H]2C[C@H](N=[N+]=[N-])[C@@H](CO)O2)c(=O)[nH]c1=O | MT-2 | RT-K65R H221Y | Site-directed mutant | 1.3 |
| Cc1cn([C@H]2C[C@H](N=[N+]=[N-])[C@@H](CO)O2)c(=O)[nH]c1=O | CEM + CEM-SS | RT-A98G | NL4-3 | 3.33 |
| Cc1cn([C@H]2C[C@H](N=[N+]=[N-])[C@@H](CO)O2)c(=O)[nH]c1=O | CEM + CEM-SS | RT-Y181C | IIIB(DPS-R(III)) | 1.1 |
| Cc1ccnc2c1NC(=O)c1cccnc1N2C1CC1 | CEM + CEM-SS | RT-L100I | Oxathiin carboxanilide-resistant RT L100I | 10 |
| CC(C)=CCN1Cc2cccc3[nH]c(=S)n(c23)C[C@@H]1C | CEM + CEM-SS | RT-Y181C | IIIB(N119(III)) | >1000 |
| Cc1occc1C(=S)Nc1ccc(Cl)c(/C=N/OC(C)(C)C)c1 | CEM + CEM-SS | RT-Y181C | E BPTU-resistant (RT Y181C) | 0.3 |
| O=S(=O)(c1ccccc1)c1ccccc1 | CEM + CEM-SS | RT-Y181C | IIIB | 31 |
| Cc1ccnc2c1NC(=O)c1cccnc1N2C1CC1 | CEM + CEM-SS | RT-D67N K70R T215Y K219Q | 4xAZT(RT-D67N K70R T215Y K219Q) | 1 |
| CCCc1cc(=O)oc2c3c(c4c(c12)OC(C)(C)C=C4)O[C@H](C)[C@@H](C)[C@@H]3O | CEM + CEM-SS | RT-V90I T139I P225S | IIIB(CALO-R(II)) | >19 |
| CCc1c(Sc2ccccn2)n(COCc2ccccc2)c(=O)[nH]c1=O | CEM + CEM-SS | RT-Y181C K101E | UC10-resistant (RT Y181C K101E) | >250 |
| CCc1c(C(=O)c2cc(C)cc(C)c2)n(CC2CC=CC2)c(=O)[nH]c1=O | CEM + CEM-SS | RT-D67N K70R L100I T215Y K219Q | 4XAZT/L100I (RT D67N K70R L100I T215Y K219Q) | 0.05 |
| Cc1cn([C@H]2C[C@H](N=[N+]=[N-])[C@@H](CO)O2)c(=O)[nH]c1=O | CEM + CEM-SS | RT-K103N | NL4-3 | 4 |
| C[C@H](Cn1cnc2c(N)ncnc21)OCP(=O)(O)O | MT-2 | RT-K65R Y115F M184V | Site-directed mutant | 4.5 |
| C/C=C/CSc1cc(NC(=S)c2ccsc2C)ccc1Cl | CEM + CEM-SS | RT-P236L | HEPT-resistant (RT P236L) | 2 |
| CCc1c(Sc2ccccn2)n(COCc2ccccc2)c(=O)[nH]c1=O | CEM + CEM-SS | RT-Y181C | IIIB | 117 |

2 of the rows above, restated:

structure | cell line | changes | strain | result
C[C@H](Cn1cnc2c(N)ncnc21)OCP(=O)(O)O | MT-2 | RT-K65R Y115F M184V | Site-directed mutant | 4.5
Cc1cn([C@H]2C[C@H](N=[N+]=[N-])[C@@H](CO)O2)c(=O)[nH]c1=O | CEM + CEM-SS | RT-K103N | NL4-3 | 4